Test system: P. falciparum NF54 strain
Test: P. falciparum NF54 growth assay, 3H-hypoxanthine incorporation (hit validation)
Type: cell-based, Plasmodium falciparum
Conditions: Ligand Efficiency Index = pEC50/(MW/1000)
Protocol: Synthesized compounds were tested in an alternative assay, in which ^3H-hypoxanthine incorporation was measured in the chloroquine-sensitive strain NF54 (Values were measured in duplicate, 12 points/EC50).
Cultivation of Plasmodium falciparum: Plasmodium falciparum strain NF54 was obtained from the Research and Reference Reagent Resource Center (MR4) (Manassas, VA, USA). The two strains were maintained in vitro by a modification of the method of Trager and Jensen. Cultures were maintained in A positive (A^+) human erythrocytes suspended at 5% hematocrit in complete medium. […] Parasite growth and morphology were observed daily using thin smears at 100X (oil immersion) magnification following staining with Giemsa stain.
Plasmodium falciparum growth assay: The protocol assesses the compound efficacy against the growth of P. falciparum in vitro.
All cultures used in the study are albumax II adopted. […]
Following the incubation period, the plates were harvested with a FilterMate cell harvester (Perkin Elmer) onto unifilter-96 GF/B plates, washed with distilled water to remove excess radiochemical and plates were kept for drying 37°C overnight or 60°C for 1 hr. Fifty µL of Microscint scintillation cocktail (Microscint-High Efficiency LSC-Cocktail; Perkin Elmer) added in the unifilter-96 GF/B plates and kept for 15-20 min. The plates were counted in a Top Count NXT microplate scintillation and luminescence counter (Perkin Elmer). The mean values for [^3H]-hypoxanthine incorporation in parasitized control and non-parasitized control erythrocytes were calculated.
Assay data were analysed using Graph pad prism ver.5 software. A variable sigmoid dose response curve is plotted keeping log concentrations at X-axis and % inhibition at Y-axis.

Row | Structure (SMILES) | LEI (NF54)
1 | O=C(O)[C@H]1Cc2c([nH]c3ccccc23)[C@H](c2ccc(Cl)cc2Cl)N1 [Compound 14d] | <13.8
2 | Cc1ccc(S(=O)(=O)N2C[C@@H](C)N(Cc3ccc(C(=O)NC4CC4)cc3)C[C@H]2C)cc1 [Compound 15b] | 14.0
3 | Cc1ccc(S(=O)(=O)N2C[C@H](C)N(Cc3ccc(C(=O)NC4CC4)cc3)C[C@@H]2C)cc1 [Compound 15a] | 16.7
4 | Cc1c(Cc2c(C)n(Cc3ccccc3C#N)c3ccccc23)c2ccccc2n1Cc1ccccc1C#N [Compound 2, 2,2'-((3,3'-methylenebis(2-methyl-1H-indole-3,1-diyl))bis(methylene))dibenzonitrile] | 12.1
5 | COc1ccc2c(c1)C1(Nc3ccccc3-c3nc4ccccc4n31)C(=O)N2 (stereo not drawn) [Compound 12, 5'-methoxy-5H-spiro[benzo[4,5]imidazo[1,2-c]quinazoline-6,3'-indolin]-2'-one] | 19.6
6 | Cc1c(CO)c2ccccc2n1Cc1ccccc1C#N [Compound 1, 2-((3-(hydroxymethyl)-2-methyl-1H-indol-1-yl)methyl)benzonitrile] | 19.2
7 | CC(=O)N1c2ccccc2[C@@H](c2ccccc2)[C@@H]1C(=O)O (racemic) [Compound 4a, Rac (2R,3R)-1-acetyl-3-phenylindoline-2-carboxylic acid] | <17.7
8 | O=C(O)[C@@H]1Cc2c([nH]c3ccccc23)[C@H](c2ccc(Cl)cc2Cl)N1 [Compound 14a, (1S,3S)-1-(2,4-dichlorophenyl)-2,3,4,9-tetrahydro-1H-pyrido[3,4-b]indole-3-carboxylic acid] | <13.8
9 | O=C(NCC(c1ccsc1)N1CCCCCC1)c1ccc(C(F)(F)F)cc1 (stereo not drawn) [Compound 11, N-(2-(azepan-1-yl)-2-(thiophen-3-yl)ethyl)-4-(trifluoromethyl)benzamide] | 15.9
10 | O=C(O)[C@H]1Cc2c([nH]c3ccccc23)[C@@H](c2ccc(Cl)cc2Cl)N1 [Compound 14c] | 14.9
11 | O=C(c1cccc(-c2noc(CN(CCN3CCCCC3)C(=O)c3ccccc3)n2)c1)N1CCCNCC1 [Compound 10, N-((3-(3-(1,4-diazepane-1-carbonyl)phenyl)-1,2,4-oxadiazol-5-yl)methyl)-N-(2-(piperidin-1-yl)ethyl)benzamide] | 14.0
12 | Cc1csc(Sc2ncnc3sccc23)n1 [Compound 13, 4-((4-methylthiazol-2-yl)thio)thieno[2,3-d]pyrimidine] | 26.3
13 | O=C(Nc1cc(=O)[nH]c2nc(-c3ccccc3)nn12)C1CCCCC1 [Compound 7, N-(5-oxo-2-phenyl-4,5-dihydro-[1,2,4]triazolo[1,5-a]pyrimidin-7-yl)cyclohexanecarboxamide] | 18.8
14 | Cc1ccc(S(=O)(=O)N2CCN(Cc3ccc(C(=O)NC4CC4)cc3)CC2)cc1 [Compound 15c, N-cyclopropyl-4-((4-tosylpiperazin-1-yl)methyl)benzamide] | 15.2
15 | CC(=O)N1CCN(Cc2coc(Cc3ccccc3)n2)CC1 [Compound 6, 1-(4-((2-benzyloxazol-4-yl)methyl)piperazin-1-yl)ethanone] | <16.7
16 | COc1ccc(NC(=O)c2cnn(-c3ccccc3)c2-c2ccccc2)c(OC)c1 [Compound 5, N-(2,4-dimethoxyphenyl)-1,5-diphenyl-1H-pyrazole-4-carboxamide] | 13.5
17 | CC(C)(C)CC(=O)N(Cc1ccc(NC(=O)c2ccc(C#N)cc2)cc1)CC(C)(C)CN [Compound 3, N-(4-((N-(3-amino-2,2-dimethylpropyl)-3,3-dimethylbutanamido)methyl)phenyl)-4-cyanobenzamide] | 12.7
18 | CCOc1ncccc1C(=O)Nc1cc(C(F)(F)F)ccc1Oc1cccc(OC)c1 [Compound 9, 2-ethoxy-N-(2-(3-methoxyphenoxy)-5-(trifluoromethyl)phenyl)nicotinamide] | 15.1
